Results of unrelated studies side by side (data: NIAID ChemDB).

Shared fields: growth or infection tests; species: HIV-1; measure: fold resistance

Fold resistance: result on the changed form divided by that on wild type.

| smiles | strain | mutations | cells | read by | result |
|---|---|---|---|---|---|
| Cc1ccnc2c1NC(=O)c1cccnc1N2C1CC1 | Diphenyl sulfone-resistant (RT-Y181C) | RT-Y181C | CEM + CEM-SS | XTT | 590 |
| O=c1[nH]cnc2c1ncn2[C@H]1CC[C@@H](CO)O1 | JF138M1 (RT M41L D67N T69D L210W T215Y) Chimeric clone | RT-M41L D67N T69D L210W T215Y | HELA-CD4+ | plaque count | 1.17 |
| Fc1cccc(F)c1C1SCc2nc3ccccc3n21 | Calanolide A-resistant (RT T139I) | RT-T139I | CEM + CEM-SS | XTT | 1.56 |
| Cc1cn([C@H]2C[C@H](N=[N+]=[N-])[C@@H](CO)O2)c(=O)[nH]c1=O | UC781-R (RT-Y181C) | RT-Y181C | CEM + CEM-SS | cytopathic effect / XTT | 0.5 |
| Cc1cc(Cl)cc(S(=O)(=O)c2cccc(N)c2C#N)c1 |  | RT-V106A | HeLa + HELA CD4+ | β-galactosidase | 0.167 |
| Nc1nc(=O)n([C@@H]2CS[C@H](CO)O2)cc1F |  | RT-M41L D67N V106A M184V T215Y |  |  | ~31 |
| Cc1cc(S(N)(=O)=O)ccc1NC(=O)COc1ccc(Cl)cc1C(=O)c1cc(Cl)cc(C#N)c1 | NNRTI-resistant (RT V106M) | RT-V106M | MAGI | β-galactosidase | 2.5 |
| CC(C)(C)NC(=O)[C@@H]1C[C@@H]2CCCC[C@@H]2CN1C[C@@H](O)[C@H](Cc1ccccc1)NC(=O)[C@H](CC(N)=O)NC(=O)c1ccc2ccccc2n1 | NL4-3 | PR-L10R M46I V82T | MT-4 | p24 | 1 |
| Cc1cn([C@H]2C=C[C@@H](CO)O2)c(=O)[nH]c1=O | HXB2 | RT-K103N | MAGI (CCR5) + MAGI | β-galactosidase | 0.16 |
| Nc1ccn([C@H]2CC[C@@H](CO)O2)c(=O)n1 | RTMN(184) (RT M41L M184V T215Y) | RT-M41L M184V T215Y | HT4 + HT4 LacZ-1 | plaque count | 6.54 |
| Cn1c2ccccc2c2c1cc(C#N)c(=O)n2-c1ccc([N+](=O)[O-])cc1 | NRTI resistant | RT-M41L K70R T215F K219E | HeLa | luciferase | 1.4 |
| CC(C)(C)C(=O)c1sc(C(=O)NCc2ccccc2)c(O)c1O |  | INTG-T66I S153Y |  |  | 1 |
| O=c1[nH]cnc2c1ncn2[C@H]1CC[C@@H](CO)O1 | BCF01 | RT-A98G K103R Y181C | PBMC |  | <0.147 |
| C/C=C/CSc1cc(NC(=S)c2ccsc2C)ccc1Cl | NL4-3 (RT K103N) | RT-K103N | CEM + CEM-SS | cytopathic effect / XTT | 16 |
| CC(C)=CCN1Cc2cc(Cl)cc3[nH]c(=S)n(c23)C[C@@H]1C | RUD (RT-A98G) | RT-A98G | PBMC |  | 55 |
| Nc1nc(=O)n([C@H]2CS[C@@H](CO)O2)cc1F | HXB2 | RT-M184V | HT4 + HT4 LacZ-1 | plaque count | 15.8 |
| Cc1cn([C@H]2C[C@H](N=[N+]=[N-])[C@@H](CO)O2)c(=O)[nH]c1=O | NRTI resistant | RT-K65R K70R V75I F77L F116Y Q151M | HeLa | luciferase | >1 |
| Nc1nc2c(ncn2[C@H]2CO[C@@H](CO)O2)c(=O)[nH]1 | RT-41L 188L 215Y | RT-M41L Y188L T215Y |  |  | 0.29 |
| CC(C)CN(C[C@@H](O)[C@H](Cc1ccccc1)NC(=O)O[C@H]1CCOC1)S(=O)(=O)c1ccc(N)cc1 | IIIB | M200I | MT-2 | p24 / ELISA | 0.3 |
| CCCN(C)C(=O)Oc1nsnc1-c1c(Cl)ccc(N)c1Cl | IIIB | RT-V189I | MAGI | MTT | 1.63 |
| Nc1nc2c(ncn2[C@H]2CO[C@@H](CO)O2)c(=O)[nH]1 |  | RT-M41L L74V V106A T215Y |  |  | ~2.5 |
| Cc1cn([C@H]2C[C@H](N=[N+]=[N-])[C@@H](CO)O2)c(=O)[nH]c1=O | E BPTU-resistant (RT Y181C) | RT-Y181C | CEM + CEM-SS | XTT | 0.6 |
| COc1cc(C(F)(F)F)cc(S(=O)(=O)c2cccc(N)c2C#N)c1 |  | RT-V108I | HeLa + HELA CD4+ | β-galactosidase | 2.07 |
| CC(C)OC(=O)OCOP(=O)(CO[C@H](C)Cn1cnc2c(N)ncnc21)OCOC(=O)OC(C)C | P18 FDDA-resistant RT P119S V179D L214F | RT-P119S V179D L214F | MT-2 | p24 | 0.332 |
| Cc1cn([C@H]2C=C[C@@H](CO)O2)c(=O)[nH]c1=O | RT-65R 116Y 151M | RT-K65R F116Y Q151M |  |  | 30 |
| N#Cc1cc2[nH]c3ccccc3c2n(-c2ccc([N+](=O)[O-])cc2)c1=O | Recombinant | RT-M41L V118I M184V | HeLa | luciferase | 6.5 |
| Cc1cn([C@@H]2O[C@H](CO[Si](C)(C)C(C)(C)C)[C@@]3(OS(=O)(=O)C=C3N)[C@H]2O[Si](C)(C)C(C)(C)C)c(=O)[nH]c1=O | UC040-R (RT-Y181C) | RT-Y181C | CEM + CEM-SS | cytopathic effect / XTT | >200 |
| Cc1occc1C(=S)Nc1ccc(Cl)c(/C=N/OC(C)(C)C)c1 | Dihydrocostatolide-resistant (RT-L100I) | RT-L100I | CEM + CEM-SS | cytopathic effect / XTT | 10 |
| Cc1occc1C(=S)Nc1ccc(Cl)c(/C=N/OC(C)(C)C)c1 | NL4-3 (RT K101E) | RT-K101E | CEM + CEM-SS | cytopathic effect / XTT | 12.5 |
| Cc1cn([C@H]2C[C@H](N=[N+]=[N-])[C@@H](CO)O2)c(=O)[nH]c1=O | IIIB | 8374-P62 GS-8374-resistant | MT-2 | ATP | 0.9 |
| Cc1cn([C@H]2C[C@H](N=[N+]=[N-])[C@@H](CO)O2)c(=O)[nH]c1=O |  | INTG-V151I |  |  | 1 |
| Nc1ccn([C@H]2CC[C@@H](CO)O2)c(=O)n1 | BCF03 | RT-A98G Y181C | PBMC |  | 0.8 |
| CC(C)Oc1ccc(Cc2ccccc2)cc1C(=O)CC(=O)C(=O)O |  | INTG-Q148K |  |  | 9 |
| Cc1cc(Br)cc(S(=O)(=O)c2cccc(N)c2C#N)c1 |  | RT-V106A Y181C | HeLa + HELA CD4+ | β-galactosidase | 44.5 |
| CC(C)=CCN1Cc2cc(Cl)cc3[nH]c(=S)n(c23)C[C@@H]1C | HIVRTMF (RT L74V) | RT-L74V T215Y | HT4 + HT4 LacZ-1 | plaque count | 0.909 |
| Cc1ccc(S(=O)(=O)N(CC(C)C)C[C@@H](O)[C@H](Cc2ccccc2)NC(=O)O[C@H]2CO[C@H]3OCC[C@H]32)cc1 | IIIB | L441P | MT-2 | p24 / ELISA | 1.2 |
| Cc1cc(O)cc(S(=O)(=O)c2cccc(N)c2C#N)c1 |  | RT-P236L | HeLa + HELA CD4+ | β-galactosidase | 1.11 |
| O=c1[nH]cnc2c1ncn2[C@H]1CC[C@@H](CO)O1 | HXB2 | RT-A62V V75I F77L F116Y Q151M | MAGI (CCR5) + MAGI | β-galactosidase | 14 |
| CC(C)CN(C[C@@H](O)[C@H](Cc1ccccc1)NC(=O)[C@H](CC(N)=O)NC(=O)c1ccc2ccccc2n1)C(=O)NC(C)(C)C | NL4-3 | PR-L63P V82T | MT-4 | p24 | 1 |

For reference, 5 entries again:

smiles	strain	mutations	cells	read by	result
CCCN(C)C(=O)Oc1nsnc1-c1c(Cl)ccc(N)c1Cl	IIIB	RT-V189I	MAGI	MTT	1.63
Cc1cc(Br)cc(S(=O)(=O)c2cccc(N)c2C#N)c1		RT-V106A Y181C	HeLa + HELA CD4+	β-galactosidase	44.5
Cc1cn([C@H]2C[C@H](N=[N+]=[N-])[C@@H](CO)O2)c(=O)[nH]c1=O	IIIB	8374-P62 GS-8374-resistant	MT-2	ATP	0.9
O=c1[nH]cnc2c1ncn2[C@H]1CC[C@@H](CO)O1	BCF01	RT-A98G K103R Y181C	PBMC		<0.147
O=c1[nH]cnc2c1ncn2[C@H]1CC[C@@H](CO)O1	HXB2	RT-A62V V75I F77L F116Y Q151M	MAGI (CCR5) + MAGI	β-galactosidase	14

Blank or dashed fields: not listed here. Conditions beyond the fields shown may differ between rows.